Strings that start with PEPTIDE1 are HELM notation: dots part the residues, brackets hold end groups and non-standard residues.

The values that follow come from paper PMC9820559 (International Journal of Molecular Sciences, 2022).

Data set [1] in a line: general procedure: Fmoc solid-phase peptide synthesis; 2-Chlorotritylchloride resin (theoretical loading of 1.6 mmol/g; loading around 0.65 mmol/g); PyBOP/DIPEA. To be noted: for isolated yield / isolated mass: whole synthesis; for conjugation yield: conjugation step.
A short description of data set [2]: peptide made by a vendor (peptide synthesis; 2-Chlorotritylchloride resin (theoretical loading of 1.6 mmol/g; loading around 0.65 mmol/g); PyBOP/DIPEA). To be noted: whole synthesis, HPLC / RP-UPLC-MS, scale of the general procedure 0.2 g resin.
The mark [3] stands for this setting: scale of the general procedure 0.2 g resin.

In turn, BCN-NDLELEDF-OH returned an isolated yield in data set [1] (on P8E on resin, scale 8.71 µmol) of 18%. For the same substance, the isolated mass in data set [1] (scale 8.71 µmol) came out at 2.00 mg. Turning to PEPTIDE1{D.E.D.N.D.L.E.L.E.D.F}$$$$V2.0, in data set [1] (scale 150 mg of 2-CTC resin), the isolated mass was determined as 28.0 mg and the isolated yield stood at 20%. PEPTIDE1{D.L.E.L.E.D.F}$$$$V2.0 came in with an isolated mass in data set [1] of 43.0 mg. In addition, in data set [1] (setting [3]), the isolated yield came out at 33%.

As to PEPTIDE1{D.N.D.L.E.L.E.D.F}$$$$V2.0, the isolated mass in data set [1] is given as 27.0 mg. In data set [1] (setting [3]), this substance showed an isolated yield of 17%. PEPTIDE1{D.S.D.N.D.L.S.L.E.D.F}$$$$V2.0: the “final HPLC purity” value in data set [2] was greater than 95%. The same measure, in the same setting: next, “PEPTIDE1{D.[pSer].D.N.D.L.[pSer].L.E.D.F}$$$$V2.0”: greater than 95%. In the case of PEPTIDE1{E.L.E.D.F}$$$$V2.0, the isolated mass in data set [1] was found to be 59.0 mg. The same substance yielded an isolated yield in data set [1] (setting [3]) of 59%. In the case of “PEPTIDE1{[BCN].D.E.D.N.D.L.E.L.E.D.F}$$$$V2.0”, the isolated yield in data set [1] (on P11EE on resin, scale 8.71 µmol) is given as 11%. The substance also gave an isolated mass in data set [1] (scale 8.71 µmol) of 1.01 mg. For PEPTIDE1{[BCN].D.L.E.L.E.D.F}$$$$V2.0, the isolated yield in data set [1] (on P7E on resin, scale 8.71 µmol) is reported as 22%. Moreover, in data set [1] (scale 8.71 µmol), the isolated mass came to 2.22 mg. As for “PEPTIDE1{[BCN].D.N.D.L.E.L.E.D.F}$$$$V2.0”, the isolated yield in data set [1] (on P9E on resin, scale 8.71 µmol) amounted to 10%. Also, the isolated mass in data set [1] (scale 8.71 µmol) was 1.17 mg.

The substance “PEPTIDE1{[BCN].D.S.D.N.D.L.E.L.E.D.F}$$$$V2.0” yielded an isolated yield in data set [1] (on P11SE on resin, scale 4.35 µmol) of 16%. For the same substance, the isolated mass in data set [1] (scale 4.35 µmol) came to 1.12 mg. Turning to “PEPTIDE1{[BCN].E.D.N.D.L.E.L.E.D.F}$$$$V2.0”, in data set [1] (on P10EE on resin, scale 8.71 µmol), the isolated yield worked out at 8%. This substance also gave an isolated mass in data set [1] (scale 8.71 µmol) of 1.00 mg. Substance PEPTIDE1{[BCN].E.L.E.D.F}$$$$V2.0 returned an isolated yield in data set [1] (on P5E on resin, scale 8.71 µmol) of 32%. The same substance registered an isolated mass in data set [1] (scale 8.71 µmol) of 2.63 mg.

On to PEPTIDE1{[BCN].L.E.L.E.D.F}$$$$V2.0, for which the isolated yield in data set [1] (on P6E on resin, scale 8.71 µmol) came to 18%. Further, the isolated mass in data set [1] (scale 8.71 µmol) came out at 1.60 mg. The substance “PEPTIDE1{[FTU].D.E.D.N.D.L.E.L.E.D.F}$$$$V2.0” registered a conjugation yield in data set [1] (on P11EE (3.41 µmol)) of 40%. PEPTIDE1{[FTU].D.L.E.L.E.D.F}$$$$V2.0 registered a conjugation yield in data set [1] (on P7E (5.03 µmol)) of 50%.

For “PEPTIDE1{[FTU].D.N.D.L.E.L.E.D.F}$$$$V2.0”, the conjugation yield in data set [1] (on P9E (4.09 µmol)) is on record as 22%. “PEPTIDE1{[FTU].D.S.D.N.D.L.E.L.E.D.F}$$$$V2.0” displayed a conjugation yield in data set [1] (on P11SE (3.43 µmol)) of 15%. Regarding “PEPTIDE1{[FTU].D.S.D.N.D.L.S.L.E.D.F}$$$$V2.0”, the conjugation yield in data set [1] (on commercial P11 (3.11 µmol)) turned out to be 68%.

The substance PEPTIDE1{[FTU].E.L.E.D.F}$$$$V2.0 gave a conjugation yield in data set [1] (on P5E (6.53 µmol)) of 53%.

In data set [1] (on P4 (7.85 µmol)), PEPTIDE1{[FTU].L.E.D.F}$$$$V2.0 showed a conjugation yield of 62%.
